A value given as a limit tells only on which side of the number the result lay.

Common to all, as to conditions: both partners purified
For assay [1], the target named is T1, MPXV M1R, residues A3-G181, C-terminal 6×His tag (pCAGGS, Expi293F) (Monkeypox virus, clade IIb 2022 …, biotinylated in the BLI assay). The assay can be described thus: SPR. A general note: In SPR one partner is held on a chip, and binding of the other changes the refractive index at the surface.
For assay [2], the target named is MPXV M1R, residues A3-G181, His tag (pET21a, E. coli, refolded) (Monkeypox virus, clade IIb 2022 …). As to the kind of experiment: crystal structure.
The target of assay [3] is T1, MPXV M1R, residues A3-G181, C-terminal …. The assay can be described thus: BLI. (In BLI a coated tip is dipped into the sample, and binding shifts an interference pattern.)

B1: hmMM1-40, humanized mMM1-40 monoclonal antibody (antibody, V domains shown)
VH: QVQLVQSGAEVKKPGASVKVSCKASGYIFTRYWMHWVRQAPGQGLEWMGYINPSTGYTEYNQKFKDRVTMTRDTSTSTVYMELSSLRSEDTAVYYCARSDYTNYVFEYWGQGTLVTVSS
VL: DVVMTQSPLSLPVTLGQPASISCRSSQSLVHSNGNTYLHWFQQRPGQSPRRLIYKVSNRFSGVPDRFSGSGSGTDFTLKISRVEAEDVGVYYCSQSTHVPYTFGGGTKVEIK
notes: copies: 2 + 2
As to B1, the binding result in assay [1] is listed as “binds”.

B2: hmMM1-40 Fab (Fab, V domains shown)
VH: QVQLVQSGAEVKKPGASVKVSCKASGYIFTRYWMHWVRQAPGQGLEWMGYINPSTGYTEYNQKFKDRVTMTRDTSTSTVYMELSSLRSEDTAVYYCARSDYTNYVFEYWGQGTLVTVSS
VL: DVVMTQSPLSLPVTLGQPASISCRSSQSLVHSNGNTYLHWFQQRPGQSPRRLIYKVSNRFSGVPDRFSGSGSGTDFTLKISRVEAEDVGVYYCSQSTHVPYTFGGGTKVEIK
Turning to B2, in assay [2], the binding result was “binds”.

B3: mMM1-16 Fab (Fab, V domains shown)
VH: QIQLQQSGAELARPGASVKLSCKASGYTFITYWIQWVKQRPGQGLEWIGAIYPGDGDTRYTQKFKAKATLTADKSSSTAYMQLSTLTSEDSAVYFCAKGDTYPAAMDYWGQGTSVTVSS
VL: DIQMTQSPASLSASVGETVTITCRTSGNIHNYLAWYQQKQGRSPQLLVNNAKTLADGVPSRFSGSGSGTQYSLKINSLQPEDIGSYYCQHFWITPYTFGGGTKLEIK
Regarding B3, in assay [2], the binding result is “binds”.

B4: mMM1-16 monoclonal antibody (mouse variable regions, human IgG1/Igκ constant regions) (antibody, V domains shown)
VH: QIQLQQSGAELARPGASVKLSCKASGYTFITYWIQWVKQRPGQGLEWIGAIYPGDGDTRYTQKFKAKATLTADKSSSTAYMQLSTLTSEDSAVYFCAKGDTYPAAMDYWGQGTSVTVSS
VL: DIQMTQSPASLSASVGETVTITCRTSGNIHNYLAWYQQKQGRSPQLLVNNAKTLADGVPSRFSGSGSGTQYSLKINSLQPEDIGSYYCQHFWITPYTFGGGTKLEIK
notes: copies: 2 + 2
In general, Kd refers to the concentration at which binding is half-saturated. A low value points to higher affinity. With B4, the Kd in assay [1] is below 50 nM.

B5: 7D11, published anti-L1R neutralizing monoclonal antibody (antibody, V domains shown)
VH: QVQLQQSGAELAKPGASVKMSCKASGYTFTRYWMHWVKQRPGQGLEWIGYINPSTGYTEYNQKFKDKATLTADKSSSTVYMQLSSLTSEDSAVYYCARTTVDGYDFAYWGQGTLVTVSA
VL: DMVMSQSPSSLAVSAGEKVSMSCKSSQTLLNSRTRKNYLAWYQQKPGQSPKLLIYWASTRESGVPDRFTGSGSGTDFTLTISSVQAEDLAVYYCKQSYNLWTFGGGTKLEIK
As to B5, in assay [3], the binding result was “binds”.

The record behind these values is publication PMC12514038, “Anti-M1R/B6R antibody characterization and bispecific design for enhanced orthopoxvirus protection” (EMBO Molecular Medicine, 2025).
